The values below come from US20170158753A1 (INTEGRATED BIOTHERAPEUTICS, published 2017).

The term EC50 denotes the concentration giving half of the maximal effect. A lower EC50 goes with greater potency.

Bounds are passed on as bounds.

One test addresses BDBV GPΔTM (Bundibugyo virus (BDBV)). The experiment in a line: ELISA, GPΔTM coated.
In another test the target is cleaved EBOV GP (GPcl) (Ebola virus (EBOV), UniProt Q05320 33-632). The experiment in a line: ELISA on thermolysin cleaved EBOV GP (GPcl), OD650 against nM mAb. In general terms: In an ELISA, binding on a coated surface is turned into a signal by an enzyme label.

B1: m17C6 (antibody, V domains shown)
VH: EVQLQESGPGLVQPSQSLSITCTVSGFSLTSYGVHWVRQSPGKGLEWLGVIWSGGSTDYNAAFISRLSISKDNSKSQVFFKMNSLQADDTAIYYCARNWFDYDNYYSMDYWGQGTSVTVSS
VL: DIQMTQTTSSLSASLGDRVTISCRASQDISNYLNWYQQKPDGTVKLLIYYTSRLHSGVPSRFSGSGSGTDFSLTISNQEPEDIATYYCQQYSNLPWTFGGGTKLEIKR
In turn, B1 returned an EC50 in the test with BDBV GPΔTM above 10 µg/mL.

B2: m8C4 (antibody, V domains shown)
VH: EVQLQESGPELKKPGETVKISCKASGYTFTTYGMSWVKQAPGKGLKWMGRINTYSGVPTYADEFKGRFAFSLENSASTAYLQINNLKNEDTATYFCARGDGGHWFANWGQGTLVTVSA
VL: DIQMTQSPSSLSASLGGKVTITCKASQDINKNIAWYQHKPGKGPRLLIWYKSALQPGIPSRFSGSGSGRDYSFSISNLEPEDIATYSCLQYDNLPPTFGGGTKLEIKR
Turning to B2, in the test with cleaved EBOV GP (GPcl), the binding result is reported as “no binding (tested: about 67 nM (last point; axis to 100 nM))”.

B3: m16G8 (antibody, V domains shown)
VH: EVQLQESGPGLVKPGASVKISCKASGYSFTGYYMNWVKQSPEKSLEWIGEINPSTGGTTYNQKFKAKATLTVDKSSSTAYMQLKSLTSEDSAVYYCVRYSHYYGSGSWYFDVWGTGTTVTVSS
VL: DIQMTQSPASLSASVGETVTITCRASENIYSNLAWYQQKQGKSPQLLVNAATNLADGVPSRFSGSGSGTQFSLKINSLQPEDFGSYYCQHFYVTPYMFGSGTKLEIKR
For the molecule B3, the EC50 with BDBV GPΔTM was 0.5 µg/mL.
